Experimental data as given in PMC6118392, “VapC proteins from Mycobacterium tuberculosis share ribonuclease sequence specificity but differ in regulation and toxicity” (PLoS ONE, 2018).
The exact form of at least one protein or probe is not confirmed. At least one verdict rests on a figure or table, not on a statement of the authors.

Columns and labels:
VapB29 + VapC29 [1] = assay: EMSA; details: recombinant protein; protein details: C-terminal His; label: 3' DIG-ddUTP
VapB29 + VapC29 [2] = assay: competition with a labelled probe; details: unlabelled 25x/50x vs labelled N2; recombinant protein; protein details: C-terminal His; label: 3' DIG-ddUTP

Row | Sequence | binding result (VapB29 + VapC29 [1]) | binding result (VapB29 + VapC29 [2])
1 | GGTGAGCGTCGGCGCGCGCATCACGATGCAGCGATGTTAGGAAAAAAAAG (double strand) [Oligo 5 Bind 4 (Mut. 4)] | binds | –
2 | GGAAAAAATCGGCGCGCGCATCACGATGCAGCGATGTTAGGATGAGGCGG (double strand) [Oligo 5 Bind 2 (Mut. 2)] | binds | binds
